Results taken from patent US7049295B2, “Compounds and use thereof to modify transport across cell membranes” (Biotransys Limited, priority 1999, dated 2006).

Test system: HUVECs
Assay: Transcellular transport of horse radish peroxidase (HRP) across a cell monolayer on filter
Assay type: cell-based, human
Settings: +5 μM biovector
Method: Transport of horse radish peroxidase (HRP) across a cellular membrane was measured using the apparatus shown schematically in FIG. 4, with the addition of biovectors (BVS1 etc). The apparatus comprises upper and lower compartments (1, 2 respectively) separated by a filter 3 on which the cells 4 are grown. HRP and biovectors are added to the medium in the upper compartment 1, and HRP is assayed in the lower compartment 2.
Transcellular transport was determined as above for the HUVECs studies. […]

polysulfonylnaphthylurea [PSNU, reference compound]
Specific resistance Across monolayer: >350 Ohms/cm^−2
